Compound potency records, mixed from different reports. Data source: NIAID ChemDB in PubChem.

Shared fields: growth or infection tests; agent: Hepatitis B virus

ECn is the concentration giving n% inhibition of infection, replication or growth. Two numbers with a dash give a range or band. An empty or dashed field is not shown. Conditions beyond the fields shown may differ between rows.

SMILES	read-out	read by	strain or isolate	cells	value
O=C(c1ccc(Br)c(Cl)c1)N1CCS(=O)(=O)[C@H](c2ccccc2)C1	EC50	PCR		HepG2.117	0.5–5 µM
O=C(O)c1cc2c(n(C3CC3)c1=O)-c1cc(Cl)c(OC[C@H]3COCCO3)cc1S(=O)(=O)C2	EC50	antigen / visual reading / absorbance		Primary human hepatocytes	0.1–0.5 µM
Nc1ccn([C@H]2CS[C@@H](CO)O2)c(=O)n1	EC50			CEM	0.5 µM
Cc1cc(NC(=O)c2c3c(c(Br)n2C)S(=O)(=O)N[C@H]2CN(C(=O)C(=O)N[C@H](C)C(F)(F)F)C[C@H]2CO3)ccc1F	EC50	PCR		HepAD38	<0.5 µM
COc1ccc(-n2c(C(=O)NCc3ccc(Cl)c(OC)c3)c3n(c2=O)CCN(C(=O)c2ccc(Cl)c(Cl)c2)C3)cc1	EC50	PCR		HepG2.117	0.5–5 µM
N#CCCC1C(=O)c2ccc(-c3ccccc3)cc2OC12CCCCC2	EC50			HepG2.2.15	0.3 µM
N=c1nc(N)c2ncn([C@@H]3O[C@H](CO)[C@@H](O)[C@H]3O)c2c(N)n1	EC50	antigen		2.2.15	>10 µM
Cc1cc(NC(=O)c2c3c(cn2C)S(=O)(=O)N[C@H]2CN(C(=O)C(=O)N[C@H](C)C(F)(F)F)C[C@H]2CO3)ccc1F	EC50	PCR	Genotype E	HepG2	0.00179 µM
CN1[C@H](C(=O)Nc2ccc(F)c(Cl)c2)C[C@H](c2ncc(-c3cn(C)cn3)s2)NS1(=O)=O	EC50	ELISA	Genotype D	PHH	0.16 µM
Cc1cc(NC(=O)c2c3c(c(C)n2C)S(=O)(=O)N[C@H]2CN(C(=O)C(=O)N[C@H](C)C(F)(F)F)C[C@H]2CO3)ccc1F	EC50	PCR		HepAD38	<0.5 µM
C[C@H]1Cn2c(c(C(=O)NCc3ccccc3-n3cccn3)n(-c3ccc(OC4CC4)cc3)c2=O)CN1C(=O)c1ccc(Br)c(Cl)c1	EC50	PCR		HepG2.117	<0.1 µM
COCCn1cc(-c2cc3c(cc2Cl)-c2c(cc(C(=O)O)c(=O)n2C2CC2)C(C)S3(=O)=O)cn1	EC50	antigen / visual reading / absorbance		Primary human hepatocytes	0.1–0.5 µM
O=C(c1ccc(Br)c(Cl)c1)N1CCn2c(c3n(c2=O)C[C@H](F)CN(Cc2ccccc2)C3=O)C1	EC50	PCR		HepG2.117	0.1–0.5 µM
c1ccc(NCc2nnc(Sc3ccccc3)o2)cc1	EC50	ELISA		HepG2 2.2.15	72.2 µM
COCCCOc1cc2c(cc1NC(C)=O)-c1c(cc(C(=O)O)c(=O)n1C1CC1)C(C)S2(=O)=O	EC50	antigen / visual reading / absorbance		Primary human hepatocytes	>0.5 µM
N=S1(=O)CCN(C(=O)Nc2ccc(F)c(Cl)c2)CC1c1cccs1	EC50	PCR		HepG2.117	0.5–5 µM
CCNC(=O)C(=O)N1CCC(NS(=O)(=O)c2cn(C)c(C(=O)Nc3ccc(F)c(Cl)c3F)c2F)CC1	EC50	PCR		HepAD38 cells	<0.1 µM
Cc1cc(NC(=O)c2c3c(cn2C)S(=O)(=O)N[C@H]2CN(C(=O)C(=O)NC4(C)CC4)C[C@H]2CS3)ccc1F	EC50	PCR		HepAD38	<0.5 µM
N#CCCCOc1cc2c(cc1Cl)-c1c(cc(C(=O)O)c(=O)n1C1CC1)CS2(=O)=O	EC50	antigen / visual reading / absorbance		Primary human hepatocytes	0.1–0.5 µM
Cc1ccc(NCc2nnc(Sc3ccccc3)o2)cc1	EC50	ELISA		HepG2 2.2.15	3.9 µM
O=C(NCc1ccccc1-c1ncccn1)c1c2n(c(=O)n1-c1ccc(OC3CC3)cc1)CCN(C(=O)c1ccc(Br)c(Cl)c1)C2	EC50	PCR		HepG2.117	<0.1 µM
CNS(=O)(=O)N1CC[C@@H](NS(=O)(=O)c2c(F)c(C(=O)Nc3ccc(F)c(F)c3)n3c2CCC3)C1	EC50	PCR		HepAD38 cells	0.1–0.3 µM
C[C@@H]1Cn2c(c(C(=O)NCc3ccccc3-c3ncccn3)n(-c3ccc(-n4cccn4)cc3)c2=O)CN1C(=O)c1ccc(Br)c(Cl)c1	EC50	PCR		HepG2.2.15	0.1–0.5 µM
O=C(c1ccc(Br)c(Cl)c1)N1CCS(=O)(=O)C(c2nnco2)C1	EC50	PCR		HepG2.117	0.5–5 µM
O=C(N/C(C(=O)N1CCCCC1)=C(/Cl)c1ccccc1)c1ccccc1	EC90			2.2.15	59.8 µM
Cn1cc2c(c1C(=O)Nc1cc(F)c(F)c(F)c1)OC[C@@H]1CN(C(=O)C(=O)NC3(C)COC3)C[C@@H]1NS2(=O)=O	EC50	PCR		HepG2	<0.5 µM
COC(=O)[C@H](C)NP(=O)(OCC1C/C1=C/n1cnc2c(N)ncnc21)Oc1ccccc1	EC50			2.2.15	0.01 µM
COCCCOc1cc2c(cc1I)-c1c(cc(C(=O)O)c(=O)n1C1CC1)C(C)S2(=O)=O	EC50	antigen / visual reading / absorbance		Primary human hepatocytes	0.05–0.1 µM
COc1ccc(-n2c(C(=O)NCc3ccccc3OC)c3n(c2=O)CCN(C(=O)c2ccc(Cl)c(Cl)c2)C3)cc1	EC50	PCR		HepG2.117	0.1–0.5 µM
COCCCOc1cc2c(cc1Br)-c1c(cc(C(=O)O)c(=O)n1C1CC1)C(C)S2(=O)=O	EC50	antigen / visual reading / absorbance		Primary human hepatocytes	0.05–0.1 µM
O=C(CNc1ccccc1)NNC(=S)Nc1ccccc1	EC50	ELISA		HepG2 2.2.15	11.4 µM
COCCCOc1cc2c(cc1Cl)-c1c(cc(C(=O)O)c(=O)n1C1CC1)C1(CCC1)S2(=O)=O	EC50	antigen / visual reading / absorbance		Primary human hepatocytes	>0.5 µM
COc1ccc(-n2c(C(=O)NCC(C)C)c3n(c2=O)CCN(C(=O)c2ccc(C)c(Cl)c2)C3)cc1.Cl	EC50	PCR		HepG2.117	>5 µM
CN(C)S(=O)(=O)N1CC[C@@H](NS(=O)(=O)c2cn(C)c(C(=O)Nc3ccc(F)c(F)c3)c2F)C1	EC50	PCR		HepAD38 cells	<0.1 µM
CNC(=O)C(=O)N1CC2COc3c(cn(C)c3C(=O)Nc3ccc(F)c(C)c3)S(=O)(=O)NC2C1	EC50	PCR		HepAD38	<0.5 µM
CCNC(=O)C(=O)N1CCC(NS(=O)(=O)c2cn(C)c(C(=O)Nc3cc(F)c(F)c(F)c3)c2F)C(C)(C)C1	EC50	PCR		HepAD38 cells	<0.1 µM
CC(Oc1cc2c(cc1Cl)-c1c(cc(C(=O)O)c(=O)n1C1CC1)C(C)S2(=O)=O)C1CC1	EC50	antigen / visual reading / absorbance		Primary human hepatocytes	0.1–0.5 µM
C[C@@H]1CS(=O)(=O)[C@](F)(c2ncc(Cc3ccccc3)s2)CN1C(=O)c1ccc(Br)c(Cl)c1	EC50	PCR		HepG2.117	0.1–0.5 µM
COc1ccc(CN2CCn3c(c4n(c3=O)CCN(C(=O)c3ccc(Br)c(F)c3)C4)C2=O)cc1	EC50	PCR		HepG2.2.15	>5 µM
Fc1ccc(NCc2nc(=S)[nH][nH]2)cc1	EC50	ELISA		HepG2 2.2.15	87.9 µM

4 of the rows above, restated:

SMILES	read-out	read by	strain or isolate	cells	value
COc1ccc(-n2c(C(=O)NCc3ccccc3OC)c3n(c2=O)CCN(C(=O)c2ccc(Cl)c(Cl)c2)C3)cc1	EC50	PCR		HepG2.117	0.1–0.5 µM
O=C(NCc1ccccc1-c1ncccn1)c1c2n(c(=O)n1-c1ccc(OC3CC3)cc1)CCN(C(=O)c1ccc(Br)c(Cl)c1)C2	EC50	PCR		HepG2.117	<0.1 µM
N=c1nc(N)c2ncn([C@@H]3O[C@H](CO)[C@@H](O)[C@H]3O)c2c(N)n1	EC50	antigen		2.2.15	>10 µM
Fc1ccc(NCc2nc(=S)[nH][nH]2)cc1	EC50	ELISA		HepG2 2.2.15	87.9 µM